Pooled drug test results. Numbers come from NIAID ChemDB, via PubChem.

Shared fields: tests in culture; organism: Mycobacterium tuberculosis

Lines come from different laboratories, so protocols vary. Blank or dashed fields: not listed here. MIC50, MIC90 and the like: level of inhibition, or share of isolates inhibited. ECn: concentration that inhibits the pathogen or its effect by n%. MIC bound: limit read from a one-dose screen. Percent inhibition refers to the dose given; in toxicity tests it is the harm to the cells.

smiles | endpoint | read by | cell line | conditions | tested at | changes | strain | value
COc1ncnc2c1cnn2COC[C@@H](O)CO | EC50 | BACTEC |  |  |  |  | H37Rv | >12.5 µg/mL
O=S(=O)(c1ccc(Cl)cc1)c1cnc2ccccc2c1N1CCCC1 | MIC | resazurin |  |  |  |  | 18b | 16 µg/mL
Nc1nc(N)nc(-c2ccc([N+](=O)[O-])o2)n1 | MIC |  |  |  |  |  | INH-r | 6.3 µg/mL
CNc1ncnc2c1cnn2COC[C@@H](O)CO | EC50 | BACTEC |  |  |  |  | H37Rv | >12.5 µg/mL
CCCCCCCCNC(=O)c1cc2c(Cl)cc(Cl)cc2[nH]1 | MIC | resazurin / fluorescence |  |  |  |  | H37Rv | 375 µM
CCCCCCCCCCC[C@@H]1CCC[C@H](C)N1 | MIC | BACTEC | VERO |  |  |  | H37Rv | 3.13 µg/mL
CCCCCCC(=O)Oc1ccc2c(c1)[nH]c1c(C)nccc12 | EC50 |  |  |  |  |  | H37Rv | >6.25 µg/mL
CO[C@H]1/C=C/O[C@@]2(C)Oc3c(C)c(O)c4c(=O)c(c5oc6cc(N7CCN(CC(C)C)CC7)cc(=O)c6nc5c4c3=C2O)NC(=O)/C(C)=C\C=C\[C@H](C)[C@H](O)[C@@H](C)[C@@H](O)[C@@H](C)[C@H](OC(C)=O)[C@@H]1C | MBC |  |  |  |  |  | 31 (rifampin-resistant) | 0.1 µg/mL
CC1(C)C(=O)c2nc3ccccc3nc2-c2ccccc21 | MIC bound | BACTEC |  |  |  |  | H37Rv | >12.5 µg/mL
CCSc1ncnc2c1cnn2COC[C@@H](O)CO | EC50 | BACTEC |  |  |  |  | H37Rv | >12.5 µg/mL
CC(=O)Nc1ccc(OCC(=O)NN2C(=O)C(C)SC2c2ccccc2[N+](=O)[O-])cc1 | inhibition |  |  |  | 12.5 µg/mL |  | H37Rv | 27%
Cc1nc2scc(-c3ccco3)c2c(=O)n1NC(=O)C1CCCCC1 | MIC |  |  |  |  |  | CNCTC MY331/88 | 203 µM
O=C1c2[nH]c(=O)[nH]c(=O)c2CN1Cc1ccccc1 | MIC | BACTEC |  |  |  |  | H37Rv | ≥12.8 µg/mL
N/C(=N\N=C\c1ccccc1Br)c1ccncc1 | MIC |  |  |  |  |  | Isolate 1751 ofloxacin-resistant | 8 µg/mL
CCC(/C(=N/Nc1c(Cl)cc(Cl)cc1Cl)c1ccccc1)n1ccnc1C | MIC bound | resazurin |  |  |  |  | H37Rv | >6.25 µg/mL
c1ccc(/C(=N/Nc2nc3ccccc3s2)c2ccccn2)cc1 | MIC |  |  |  |  |  | H37Ra | 1.56 µM
O=C(/C=C/c1ccccc1)Cc1nc2nnc(NC(=O)Nc3ccc(Cl)cc3)n2[nH]c1=O | inhibition | BACTEC |  |  | 12.5 µg/mL |  | H37Rv | 67%
CO[C@H]1/C=C/O[C@@]2(C)Oc3c(C)c(O)c4c(O)c(c(/C=N/N5CCN(C/C=C/c6ccccc6)CC5)c(O)c4c3C2=O)NC(=O)/C(C)=C\C=C\[C@H](C)[C@H](O)[C@@H](C)[C@@H](O)[C@@H](C)[C@H](OC(C)=O)[C@@H]1C | MIC |  |  |  |  |  | 9 (rifampin-resistant) | 0.05 µg/mL
COc1cc(C2SCC(=O)N2NC(=O)COc2ccc(NC(C)=O)cc2)ccc1O | EC50 |  |  |  |  |  | H37Rv | >12.5 µg/mL
Cc1ccc(C(=O)CN2C(=O)COc3ccccc3C2=O)cc1 | MIC | resazurin |  |  |  |  | 18b | 4 µg/mL
Fc1ccc(/C(Cn2ccnc2)=N\OCc2ccccc2)cc1 | MIC |  |  |  |  |  | CIP103471 | 4 µg/mL
Cc1nccc2c1[nH]c1cc(OC(=O)c3ccccc3)ccc12 | inhibition |  |  |  | 6.25 µg/mL |  | H37Rv | 41%
Nc1cc(O)c(C(=O)O)cc1F | MIC90 | resazurin |  |  |  | Kanamycin-resistant | H37Rv | 6.25 µg/mL
CC(=O)Nc1ccc(OCC(=O)NN2C(=O)CSC2c2ccc(N(C)C)cc2)cc1 | EC50 |  |  |  |  |  | H37Rv | >12.5 µg/mL
OC[C@H](O)COCn1ncc2c(SCc3ccccc3)ncnc21 | EC50 | BACTEC |  |  |  |  | H37Rv | >12.5 µg/mL
Clc1ccc(/C(Cn2ccnc2)=N/OCc2ccccc2)c(Cl)c1 | MIC |  |  |  |  |  | CIP103471 | 0.5 µg/mL
O=C1ONN(c2ccccc2)/C1=C\N=Nc1ncnc2nc[nH]c12 | MIC bound | BACTEC |  |  |  |  | H37Rv | >12.5 µg/mL
Cc1cccc(N=Nc2c(O)c3ccc(Cl)cc3[nH]c2=O)c1 | inhibition | resazurin |  |  | 6.25 µg/mL |  | H37Rv | 70%
Clc1ccc(/C(Cn2ccnc2)=N/OCc2ccc(-c3ccccc3)cc2)c(Cl)c1 | MIC |  |  |  |  |  | CIP103471 | 8 µg/mL
COc1ccc(N=Nc2c(C)nn(C(=O)c3ccncc3)c2C)cc1 | inhibition | BACTEC |  |  | 12.5 µg/mL |  | H37Rv | -21%
CO[C@H]1/C=C/O[C@@]2(C)Oc3c(C)c(O)c4c(O)c(c5c(c4c3C2=O)NC2(CCN(CC(C)C)CC2)N=5)=NC(=O)/C(C)=C\C=C\[C@H](C)[C@H](O)[C@@H](C)[C@@H](O)[C@@H](C)[C@H](OC(C)=O)[C@@H]1C | MIC |  |  |  |  |  |  | 0.03 µg/mL
C=CC/C(=N\OS(=O)(=O)O)S[C@@H]1O[C@H](CO)[C@@H](O)[C@H](O)[C@H]1O | inhibition | BACTEC |  |  | 12.5 µg/mL |  | H37Rv | -5%
O=C1c2ccccc2-c2nn(C(=O)c3ccccc3)c3cccc1c23 | MIC | resazurin |  |  |  |  | 18b | 8 µg/mL
Cc1ccc(/C=N/N=C(\N)c2ccncc2)cc1 | MIC |  |  |  |  |  | H37Rv | 4 µg/mL
CO[C@H]1/C=C/O[C@@]2(C)Oc3c(C)c(O)c4c(O)c(cc(O)c4c3C2=O)NC(=O)/C(C)=C\C=C\[C@H](C)[C@H](O)[C@@H](C)[C@@H](O)[C@@H](C)[C@H](OC(C)=O)[C@@H]1C | MIC |  |  |  |  |  | Aoyama B (isoniazid-resistant) | 6.3 µg/mL
O=c1[nH]c2cc([N+](=O)[O-])ccc2c(O)c1N=Nc1ccc(Br)cc1 | inhibition | resazurin |  |  | 6.25 µg/mL |  | H37Rv | 100%
CCOC(=O)CCC(NC(=O)c1ccc(Nc2nc3ccccc3nc2C(=O)OCC)cc1)C(=O)OCC | inhibition | BACTEC |  |  | 12.5 µg/mL |  | H37Rv | 5%
Brc1ccccc1-c1nnc2sc(-c3ccncc3)nn12 | MIC | resazurin |  |  |  |  | 18b | 8 µg/mL
Nc1ncnc2c1cnn2Cc1cn(COC[C@@H](O)CO)nn1 | EC50 | BACTEC |  |  |  |  | H37Rv | >12.5 µg/mL
CC(=O)Oc1ccc2c(c1)[nH]c1c(C)nccc12 | EC50 |  |  |  |  |  | H37Rv | >6.25 µg/mL
Cc1nc2scc(-c3ccco3)c2c(=O)n1/N=C/C1CC1 | MIC |  |  |  |  |  | CNCTC MY331/88 | 67 µM
CC(=O)c1c(C)[nH]c(C(=O)N/N=C/c2ccc(C)cc2)c1C | MIC | resazurin |  |  |  |  | H37Rv | <6.25 µg/mL
CCn1c(C)c(C(=O)NCCOC)sc1=S | MIC | resazurin |  |  |  |  | 18b | >16 µg/mL
COc1ccc(/C=N/n2c(C)nc3scc(-c4ccco4)c3c2=O)cc1 | MIC |  |  |  |  |  | CNCTC MY331/88 | 15 µM
O=c1[nH]cnc2c1cnn2Cc1cn(COC[C@@H](O)CO)nn1 | EC50 | BACTEC |  |  |  |  | H37Rv | >12.5 µg/mL
C/C=N/n1c(C)nc2scc(-c3ccco3)c2c1=O | MIC |  |  |  |  |  | CNCTC MY331/88 | 60 µM
O=c1[nH]c2c([N+](=O)[O-])cccc2c(O)c1N=Nc1ccc(Cl)cc1 | inhibition | resazurin |  |  | 6.25 µg/mL |  | H37Rv | 61%
CC(=O)NCC1CN(c2ccc(C(C)=O)cc2)C(=O)O1 | MIC |  |  |  |  |  |  | 1.25 µg/mL
CC(=O)Nc1ccc(OCC(=O)NN2C(=O)CSC2c2ccccc2Cl)cc1 | EC50 |  |  |  |  |  | H37Rv | >12.5 µg/mL
CCn1cc(C(=O)O)c(=O)c2cc(F)c(N3CCNCC3)cc21 | MIC |  |  |  |  |  | H37Rv | 15.6 µg/mL
N/C(=N\N=C\c1ccc(Cl)cc1)c1ccncc1 | MIC |  |  |  |  |  | Isolate 1751 ofloxacin-resistant | 8 µg/mL
NC(=O)c1cccc([C@@H]2O[C@H](CO)[C@@H](O)[C@H]2O)c1 | MIC bound | BACTEC |  |  |  |  | H37Rv | >12.5 µg/mL
CC(=O)Nc1ccc(OCC(=O)N/N=C/c2ccccc2)cc1 | EC50 |  |  |  |  |  | H37Rv | >12.5 µg/mL
CO[C@H]1[C@@H](O)[C@@H](C)O[C@H](O[C@H]2[C@H](Oc3cccc4c(O)c5c(=O)oc6ccc(C)c7c(=O)oc(c34)c5c67)O[C@H](C)[C@H](O)[C@@H]2O)[C@@H]1O | MIC |  |  |  |  |  | H37Ra | 1.56 µM
C[C@@H]1C(NC(=O)c2cc3c(Cl)cc(Cl)cc3[nH]2)C[C@H]2C[C@@H]1C2(C)C | MIC | resazurin / fluorescence |  |  |  |  | V4207 | 0.0156 µM
c1ccc(/C(Cn2ccnc2)=N/OCc2cccc3ccccc23)cc1 | MIC |  |  |  |  |  | CIP103471 | 8 µg/mL
CC(=O)OCC1OC(OC2=C(CC=C(C)C)C(=O)c3ccccc3C2=O)C(OC(C)=O)C(OC(C)=O)C1OC(C)=O | MIC bound | BACTEC |  |  |  |  | H37Rv | ≤128 µg/mL
Cc1nc2scc(-c3ccco3)c2c(=O)n1NC(=O)c1ccc(F)cc1 | MIC |  |  |  |  |  | CNCTC MY331/88 | 15 µM
O=c1oc2ccc(-c3ccccc3)cc2c(O)c1N=Nc1ccc(F)cc1 | inhibition | resazurin |  |  | 6.25 µg/mL |  | H37Rv | 18%
Cc1nccc2c1[nH]c1cc(OC(=O)/C=C/c3ccccc3)ccc12 | EC50 |  |  |  |  |  | H37Rv | >6.25 µg/mL
O=c1[nH]c2cc([N+](=O)[O-])ccc2c(O)c1N=Nc1ccccc1-c1ccccc1 | MIC | resazurin |  |  |  |  | H37Rv | <6.25 µg/mL
c1ccc(/C(Cn2ccnc2)=N/OCc2ccc(-c3ccccc3)cc2)cc1 | MIC |  |  |  |  |  | CIP103471 | 8 µg/mL
N/C(=N\N=C\c1cccc(Br)c1)c1ccncc1 | MIC |  |  |  |  |  | H37Rv | 16 µg/mL
Clc1ccc(/C(Cn2ccnc2)=N\OC/C=C/c2ccccc2)cc1 | MIC |  |  |  |  |  | CIP103471 | 8 µg/mL
Cc1cccc(C)c1NC1=CC(=O)C(=O)c2ccccc21 | MIC bound | resazurin |  |  |  |  | H37Rv | <6.25 µg/mL
Cc1cccc(-n2nc([N+](=O)[O-])c(=Nc3ccc(C)cc3C)n2O)c1 | MIC | resazurin |  |  |  |  | Clinical isolate | 8 µg/mL
CCOC(=O)/C(=C\c1ccc(N(CCC#N)CCC#N)cc1)NC(=O)c1cc([N+](=O)[O-])ccc1Cl | MIC bound | BACTEC |  |  |  |  | H37Rv | >12.5 µg/mL
Cc1ccc(/C=N/n2c(C)nc3scc(-c4ccco4)c3c2=O)cc1 | MIC |  |  |  |  |  | CNCTC MY331/88 | 42 µM
CC1OC(n2ccc(NC(=O)c3ccc(NC(=O)C(C)(N)CO)cc3)nc2=O)CCC1OC1OC(C)C(N(C)C)C(O)C1O | inhibition | BACTEC |  |  | 128 µg/mL |  | H37Rv | 100%
C=C(NC(=O)C(=C)NC(=O)c1csc(C2=NC3CC4(C2)NC(=O)C(C)NC(=O)C(=C)NC(=O)C(=C)NC(=O)C(C(C)C)NC2C=Cc5c(C(C)O)cc(nc5C2O)C(=O)OC(C)C(NC(=O)c2csc(n2)C(C(C)(O)C(C)O)NC(=O)C2CSC(=N2)/C(=C\C)NC(=O)C(C(C)O)NC(=O)c2csc4n2)c2nc3cs2)n1)C(N)=O | MIC |  |  |  |  |  | H37Ra | 6.25 µM
CC1(C)C2CCC13CS(=O)(=O)N(C(=O)C1CC=CCC1)C3C2 | MIC bound | BACTEC |  |  |  |  | H37Rv | >12.5 µg/mL
Cc1cc(=O)c2c(O)c3c(O)cc(=O)c4c3c3c(cc(O)c1c23)C(C)(C)C=4O | MIC | resazurin |  |  |  |  | Clinical isolate | 2 µg/mL
COC(=O)NC1C(=O)OC(C2OC2(C)C)C1(C)C | MIC bound | BACTEC |  |  |  |  | H37Rv | >12.5 µg/mL
Cc1ccccc1N=Nc1c(O)c2cc(-c3ccccc3)ccc2oc1=O | MIC | resazurin |  |  |  |  | H37Rv | <6.25 µg/mL
NNC(=O)c1ccc(C(=O)NN)nc1 | inhibition | BACTEC |  |  | 12.5 µg/mL |  | H37Rv | 8%
O=C1c2cccnc2-c2nccc3c2c1nc1cc(Br)ccc13 | MIC |  |  |  |  |  | H37Ra | 3.125 µM
CC1CCN(SSc2nc3ccccc3s2)CC1 | inhibition | BACTEC |  |  | 12.5 µg/mL |  | H37Rv | 97%
Cc1nc2scc(-c3ccco3)c2c(=O)n1/N=C/c1ccc([N+](=O)[O-])cc1 | MIC |  |  |  |  |  | CNCTC MY331/88 | 7 µM
Cc1ccc2nc(-c3cccc(Cl)c3)oc(=O)c2c1 | inhibition | BACTEC |  |  | 12.5 µg/mL |  | H37Rv | 24%
C[C@@H]1[C@@H](NC(=O)c2cc3c(F)cc(F)cc3[nH]2)C[C@H]2C[C@@H]1C2(C)C | MIC | resazurin / fluorescence |  | multidrug-resistant |  |  | KZN494 | 0.0039 µM